Anti-infective test results gathered from many reports (values: NIAID ChemDB through PubChem).

All rows: toxicity to cultured cells; cell line: MDCK; read-out: CC50

Neighbouring rows are from separate reports. An empty or dashed field is not shown. CCn: concentration that lowers growth or viability of the cells by n%. Two numbers with a dash give a range or band.

SMILES | read by | value
CC1(C)C[C@@H](O)C[C@](C)(CNC(=S)c2cccc(C(F)(F)F)c2)C1 | - | 15 µg/mL
Nc1nc(Cl)cc(NCC2(CO)CC2)n1 | - | >440 µM
C1=CCC2(CC1)COC(c1ccco1)OC2 | MTT | >500 µg/mL
Nc1ncc(Br)c(NCC2(CO)CC(CCc3ccccc3)C2)n1 | - | 0.46–0.77 µM
Cc1cccc(C(=S)NC[C@@]2(C)C[C@H](O)CC(C)(C)C2)c1 | - | 35 µg/mL
Cc1ccc(O)c(C(=O)NCCN2[C@H](C)CCC[C@@H]2C)c1 | - | >100 µg/mL
Nc1ncc(N)c(NCC2(CO)CC(Cc3ccccc3)C2)n1 | - | 8–23 µM
CC1(C)C[C@H](O)C[C@](C)(CNC(=S)c2cccc(Cl)c2)C1 | - | 8.5 µg/mL
Cc1ccc(O)c(C(=O)N[C@@H]2CCC34CCC3N(C(C)C)C4C2)c1 | - | 100 µg/mL
Cc1cccc(C(=S)NC[C@@]2(C)C[C@@H](O)CC(C)(C)C2)c1 | - | 20 µg/mL
COc1ncc2ncn([C@@H]3O[C@H](CO)[C@@H](O)[C@H]3F)c2n1 | MTT | >500 µM
C[C@@H]1CC[C@@H]2CCCC[C@@H]2N1CCNC(=O)c1cc(Cl)ccc1O | - | 40 µg/mL
CCOC(=O)c1ccc(OC(=O)CCCCCN=C(N)N)cc1.COS(=O)(=O)O | MTT | 580 µg/mL
CCC(CC)[C@H](NC(C)=O)[C@@H]1[C@H](O)[C@@H](C(=O)O)C[C@H]1N=C(N)N | neutral red | >1000 µM
Cc1ccc(O)c(C(=O)N[C@H]2CCC34CCC3N(C)C4C2)c1 | - | 100 µg/mL
COc1cc(/C=C/c2ccc3c(c2)[C@H](c2cc(O)cc(O)c2)[C@@H](c2ccc(O)cc2)O3)cc(OC)c1 | MTT | 13.34 µg/mL
CCC(CC)[C@H](NC(C)=O)[C@@H]1[C@H](O)[C@@H](C(=O)O)C[C@H]1N=C(N)N | neutral red | >1000 µM
CN(C)C(=O)COC(=O)Cc1ccc(OC(=O)c2ccc(N=C(N)N)cc2)cc1.COS(=O)(=O)O | MTT | >500 µg/mL
CCCOc1nc2c(nc(N)n2[C@@H]2O[C@H](CO)[C@@H](O)[C@H]2F)c(=O)[nH]1 | MTT | >500 µM
CCCC(CCC)C(NC(C)=O)C1C(N=C(N)N)CC(C(=O)O)C1O | neutral red | >1000 µM
COc1nc2c(nc(N)n2[C@@H]2O[C@H](CO)[C@@H](O)[C@H]2F)c(=O)[nH]1 | MTT | >500 µM
CC(=O)N[C@H]1[C@H]([C@H](O)[C@H](O)CO)OC(C(=O)O)=C[C@@H]1N=C(N)N | neutral red | >1000 µM
Nc1ncc(/C=N/O)c(NCC2(CO)CC(CCc3ccccc3)C2)n1 | - | 1.1–2.8 µM
Oc1ccc([C@H]2Oc3ccc(/C=C/c4cc(O)cc(O)c4)cc3[C@@H]2c2cc(O)cc(O)c2)cc1 | MTT | 38.42 µg/mL

A second listing of 2 rows from above:

SMILES	read by	value
CC1(C)C[C@@H](O)C[C@](C)(CNC(=S)c2cccc(C(F)(F)F)c2)C1	-	15 µg/mL
COc1cc(/C=C/c2ccc3c(c2)[C@H](c2cc(O)cc(O)c2)[C@@H](c2ccc(O)cc2)O3)cc(OC)c1	MTT	13.34 µg/mL